Data published in article PMC9837764 (Nature Communications, 2023).
Like-named read-outs stand apart in the source and are kept apart here.

Tested on: Salmonella typhimurium TA 1535

| Compound | Mutagenicity TA 1535 -S9 (Positive Control 1.5 µg/plate) | Mutagenicity TA 1535 +S9 | Mutagenicity TA 1535 -S9 |
| --- | --- | --- | --- |
| [N-]=[N+]=[N-].[Na+] [AZS, sodium azide, reference compound] | + |  |  |
| c1coc(CNc2ncnc3[nH]cnc23)c1 [MB-905, N6-furfurylaminopurine] |  | - | - |
| Nc1ccc2cc3ccccc3cc2c1 [2-AA, 2-aminoanthracene, reference compound] |  | + |  |
